{"source": "PubChem BioAssay AID1259414 (Drosophila RNAi Screening Center, 2018)", "test": "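Genome-wide screen for host control of endosymbiont load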 (primary screen)", "system": "Drosophila JW18 cells infected with Wolbachia", "reagents": "long dsRNA against Drosophila genes, 0.25 µg dsRNA per well of a 384-well plate", "duration": "5 days", "conditions": "cells persistently infected with Wolbachia before knock-down; no added drug", "measured": "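Imaged fluorescence in situ signal for Wolbachia 23S rRNA per DAPI-counted host cell, given as a robust z-score within each plate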", "scale": "Wolbachia per cell robust z: higher = more Wolbachia per host cell than the plate typical", "hit rule": "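Hit when robust z is 1.5 or more, or -1.5 or less, in at least two of three replicates; excludes dsRNAs with several or no targets, genes not expressed in JW18 and well A1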", "note": "In all, the deposit lists about 24,000 reagents; this is a random part of those with a known target gene and a result. In the full data, about 1,210 (5%) were called active. 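Inactive calls also include excluded dsRNAs with several or no targets, genes unexpressed in JW18, and well A1, regardless of score.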 Reagent sequences are not shown."}
{"target gene": "CG18628", "amplicon": "DRSC10328", "Wolbachia per cell robust z, rep 1": -0.256, "Wolbachia per cell robust z, rep 2": -0.417, "Wolbachia per cell robust z, rep 3": -0.19, "Outcome": "inactive"}
{"target gene": "ND-B17.2", "amplicon": "DRSC00577", "Wolbachia per cell robust z, rep 1": 0.689, "Wolbachia per cell robust z, rep 2": -2.2, "Wolbachia per cell robust z, rep 3": 1.25, "Outcome": "inactive"}
{"target gene": "ND-B17.2", "amplicon": "DRSC26940", "Wolbachia per cell robust z, rep 1": 0.808, "Wolbachia per cell robust z, rep 2": 0.963, "Wolbachia per cell robust z, rep 3": 1.16, "Outcome": "inactive"}
{"target gene": "CG18528", "amplicon": "DRSC15340", "Wolbachia per cell robust z, rep 1": -4.33, "Wolbachia per cell robust z, rep 2": 0.804, "Wolbachia per cell robust z, rep 3": 0.783, "Outcome": "inactive"}
{"target gene": "CG8584", "amplicon": "DRSC07217", "Wolbachia per cell robust z, rep 1": 0.997, "Wolbachia per cell robust z, rep 2": 0.357, "Wolbachia per cell robust z, rep 3": 0.753, "Outcome": "inactive"}
{"target gene": "CG8584", "amplicon": "DRSC41410", "Wolbachia per cell robust z, rep 1": -1.14, "Wolbachia per cell robust z, rep 2": -1.56, "Wolbachia per cell robust z, rep 3": 0.603, "Outcome": "inactive"}
{"target gene": "Art8", "amplicon": "DRSC02530", "Wolbachia per cell robust z, rep 1": 0.84, "Wolbachia per cell robust z, rep 2": 0.515, "Wolbachia per cell robust z, rep 3": 1.3, "Outcome": "inactive"}
{"target gene": "CG14777", "amplicon": "DRSC18563", "Wolbachia per cell robust z, rep 1": 0.969, "Wolbachia per cell robust z, rep 2": 0.0659, "Wolbachia per cell robust z, rep 3": 0.703, "Outcome": "inactive"}
{"target gene": "Pcp", "amplicon": "DRSC03395", "Wolbachia per cell robust z, rep 1": -1.03, "Wolbachia per cell robust z, rep 2": -0.448, "Wolbachia per cell robust z, rep 3": 0.74, "Outcome": "inactive"}
{"target gene": "CG15423", "amplicon": "DRSC00437", "Wolbachia per cell robust z, rep 1": -0.172, "Wolbachia per cell robust z, rep 2": -2.17, "Wolbachia per cell robust z, rep 3": 1.69, "Outcome": "inactive"}
{"target gene": "CG15423", "amplicon": "DRSC29587", "Wolbachia per cell robust z, rep 1": 0.327, "Wolbachia per cell robust z, rep 2": 0.147, "Wolbachia per cell robust z, rep 3": -0.335, "Outcome": "inactive"}
{"target gene": "Acat1", "amplicon": "DRSC17766", "Wolbachia per cell robust z, rep 1": -0.418, "Wolbachia per cell robust z, rep 2": -9.83, "Wolbachia per cell robust z, rep 3": -3.53, "Outcome": "active"}
{"target gene": "Acat1", "amplicon": "DRSC28395", "Wolbachia per cell robust z, rep 1": -0.531, "Wolbachia per cell robust z, rep 2": 0.535, "Wolbachia per cell robust z, rep 3": -0.268, "Outcome": "inactive"}
{"target gene": "GABPI", "amplicon": "DRSC00494", "Wolbachia per cell robust z, rep 1": -1.1, "Wolbachia per cell robust z, rep 2": -1.39, "Wolbachia per cell robust z, rep 3": 1.19, "Outcome": "inactive"}
{"target gene": "GABPI", "amplicon": "DRSC27495", "Wolbachia per cell robust z, rep 1": 0.733, "Wolbachia per cell robust z, rep 2": 0.0681, "Wolbachia per cell robust z, rep 3": 1, "Outcome": "inactive"}
{"target gene": "JhI-21", "amplicon": "DRSC02161", "Wolbachia per cell robust z, rep 1": -0.561, "Wolbachia per cell robust z, rep 2": 1.07, "Wolbachia per cell robust z, rep 3": 1.17, "Outcome": "inactive"}
{"target gene": "JhI-21", "amplicon": "DRSC29181", "Wolbachia per cell robust z, rep 1": -0.427, "Wolbachia per cell robust z, rep 2": 0.37, "Wolbachia per cell robust z, rep 3": 1.23, "Outcome": "inactive"}
{"target gene": "ema", "amplicon": "DRSC14536", "Wolbachia per cell robust z, rep 1": -1.56, "Wolbachia per cell robust z, rep 2": -4.98, "Wolbachia per cell robust z, rep 3": 0.279, "Outcome": "active"}
{"target gene": "CG41378", "amplicon": "DRSC38719", "Wolbachia per cell robust z, rep 1": -0.0905, "Wolbachia per cell robust z, rep 2": -0.453, "Wolbachia per cell robust z, rep 3": -0.788, "Outcome": "inactive"}
{"target gene": "LysS", "amplicon": "DRSC08677", "Wolbachia per cell robust z, rep 1": 1.1, "Wolbachia per cell robust z, rep 2": -2.43, "Wolbachia per cell robust z, rep 3": 1.1, "Outcome": "inactive"}
{"target gene": "LysS", "amplicon": "DRSC27168", "Wolbachia per cell robust z, rep 1": -0.63, "Wolbachia per cell robust z, rep 2": 0.744, "Wolbachia per cell robust z, rep 3": 0.56, "Outcome": "inactive"}
{"target gene": "CG32313", "amplicon": "DRSC21450", "Wolbachia per cell robust z, rep 1": -0.535, "Wolbachia per cell robust z, rep 2": -0.114, "Wolbachia per cell robust z, rep 3": 0.0102, "Outcome": "inactive"}
{"target gene": "14-3-3zeta", "amplicon": "DRSC05028", "Wolbachia per cell robust z, rep 1": -1.03, "Wolbachia per cell robust z, rep 2": -0.66, "Wolbachia per cell robust z, rep 3": 0.128, "Outcome": "inactive"}
{"target gene": "14-3-3zeta", "amplicon": "DRSC27525", "Wolbachia per cell robust z, rep 1": 0.477, "Wolbachia per cell robust z, rep 2": 0.725, "Wolbachia per cell robust z, rep 3": 1.06, "Outcome": "inactive"}
{"target gene": "14-3-3zeta", "amplicon": "DRSC40722", "Wolbachia per cell robust z, rep 1": -0.364, "Wolbachia per cell robust z, rep 2": -0.314, "Wolbachia per cell robust z, rep 3": -2.47, "Outcome": "inactive"}
{"target gene": "Secp43", "amplicon": "DRSC00454", "Wolbachia per cell robust z, rep 1": 0.525, "Wolbachia per cell robust z, rep 2": 1.13, "Wolbachia per cell robust z, rep 3": 0.517, "Outcome": "inactive"}
{"target gene": "Secp43", "amplicon": "DRSC27411", "Wolbachia per cell robust z, rep 1": 0.375, "Wolbachia per cell robust z, rep 2": -0.723, "Wolbachia per cell robust z, rep 3": -0.179, "Outcome": "inactive"}
{"target gene": "sni", "amplicon": "DRSC17770", "Wolbachia per cell robust z, rep 1": 0.564, "Wolbachia per cell robust z, rep 2": 0.0083, "Wolbachia per cell robust z, rep 3": 0.677, "Outcome": "inactive"}
{"target gene": "sni", "amplicon": "DRSC25897", "Wolbachia per cell robust z, rep 1": 0.621, "Wolbachia per cell robust z, rep 2": 0.627, "Wolbachia per cell robust z, rep 3": 0.0391, "Outcome": "inactive"}
{"target gene": "sni", "amplicon": "DRSC38994", "Wolbachia per cell robust z, rep 1": 0.461, "Wolbachia per cell robust z, rep 2": -1.25, "Wolbachia per cell robust z, rep 3": -1.12, "Outcome": "inactive"}
